Laboratory results: PubChem BioAssay AID624099 (ICCB-Longwood, 2012)
Here is an unselected part of about 21,000 reagents tested. Of all reagents, 497 (2.4%) are marked active. 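Higher z means weaker E2 silencing; only reporter increases were scored, and knock-downs that hurt cell survival may mask genuine repressor factors.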 Reagents against one gene are numbered here. No sequences are given here.

Purpose: 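Host factors E2 relies on to silence an HPV18 LCR reporter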 (primary screen)
Cell system: human C33A cervical carcinoma cells (HPV-negative) stably expressing BPV1 E2 and an HPV18 LCR luciferase reporter
Reagents: siRNA pool against human genes, 40 nM
Timing: 72 h
Measured: 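HPV18 LCR reporter light per well, converted to plate-wise z-scores that exclude control wells, and averaged over triplicate plates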
Direction: mean z-score and z-score: higher = stronger reporter signal, weaker E2 silencing
Hit rule: 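Mean z ≥ 2 together with z ≥ 2 in two or more of the three replicates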

TMCO5A showed mean z-score -0.52; z-score, replicate A = -0.52; z-score, replicate B = -0.84; z-score, replicate C = -0.18; inactive.
Depletion of LMTK2 gave: mean z-score 0.82; z-score, replicate A = 0.93; z-score, replicate B = 0.55; z-score, replicate C = 0.96; inactive.
Silencing of CDC6 resulted in: mean z-score 0.58; z-score, replicate A = 0.12; z-score, replicate B = 0.61; z-score, replicate C = 1; inactive.
ZBED8 scored mean z-score 0.57; z-score, replicate A = 0.36; z-score, replicate B = 0.38; z-score, replicate C = 0.97; inactive.
Silencing of OR2T11 came out at: mean z-score -1.5; z-score, replicate A = -1.75; z-score, replicate B = -1.23; z-score, replicate C = -1.51; inactive.
INHBA scored mean z-score -0.41; z-score, replicate A = -0.39; z-score, replicate B = -0.26; z-score, replicate C = -0.57; inactive.
Knock-down of OR4C13 gave: mean z-score 0.99; z-score, replicate A = 0.82; z-score, replicate B = 1.15; z-score, replicate C = 1; inactive.
ANKRD16 showed mean z-score -1.32; z-score, replicate A = -1.22; z-score, replicate B = -1.29; z-score, replicate C = -1.45; inactive.
With knock-down of CSTF1, the record shows mean z-score 1.14; z-score, replicate A = 1.03; z-score, replicate B = 1.22; z-score, replicate C = 1.18; inactive.
With knock-down of HNRNPA0 the results were mean z-score -1.43; z-score, replicate A = -1.5; z-score, replicate B = -1.41; z-score, replicate C = -1.39; inactive.
Against AK7 the deposit lists mean z-score 0.08; z-score, replicate A = -0.26; z-score, replicate B = 0.46; z-score, replicate C = 0.04; inactive.
Depletion of LOC284931 (retired record) came out at: mean z-score 0.21; z-score, replicate A = 0.18; z-score, replicate B = 0.25; z-score, replicate C = 0.21; inactive.
CTRC showed mean z-score -1.2; z-score, replicate A = -1.36; z-score, replicate B = -1.13; z-score, replicate C = -1.1; inactive.
With knock-down of NSMCE2, the record shows mean z-score 1.52; z-score, replicate A = 0.87; z-score, replicate B = 1.34; z-score, replicate C = 2.35; inactive.
After knock-down of BCL7B, the record shows mean z-score 1.08; z-score, replicate A = 1.24; z-score, replicate B = 0.74; z-score, replicate C = 1.25; inactive.
Against OR2L2, the entry reads mean z-score 0.21; z-score, replicate A = 0.32; z-score, replicate B = 0.46; z-score, replicate C = -0.15; inactive.
ULK4 #1 showed mean z-score -0.06; z-score, replicate A = 0.33; z-score, replicate B = -0.5; z-score, replicate C = 0; inactive.
Against ULK4 #2, the entry reads mean z-score 0.4; z-score, replicate A = 0.57; z-score, replicate B = 0.18; z-score, replicate C = 0.46; inactive.
Depletion of LINC01623 gave: mean z-score 0.5; z-score, replicate A = 0.32; z-score, replicate B = 0.64; z-score, replicate C = 0.56; inactive.

Look-ups from above.
Entry of OR4C13 under “z-score, replicate C”: 1
Result for INHBA in “z-score, replicate B”: -0.26
CTRC, Call: inactive
ZBED8, z-score, replicate B: 0.38
Entry for AK7 under “z-score, replicate A”: -0.26

Continued:
For LINC02911, the entry reads mean z-score -1.23; z-score, replicate A = -1.17; z-score, replicate B = -1.3; z-score, replicate C = -1.24; inactive.
Against FAM3B the deposit lists mean z-score -0.12; z-score, replicate A = 0.1; z-score, replicate B = -0.08; z-score, replicate C = -0.37; inactive.
With knock-down of HSPB1, the record shows mean z-score 3.52; z-score, replicate A = 3.81; z-score, replicate B = 3.36; z-score, replicate C = 3.4; active.
After knock-down of FLJ44955 (retired record), the record shows mean z-score -0.29; z-score, replicate A = -0.24; z-score, replicate B = -0.45; z-score, replicate C = -0.18; inactive.
After knock-down of SNX14, the record shows mean z-score 0; z-score, replicate A = -0.24; z-score, replicate B = -0.18; z-score, replicate C = 0.42; inactive.
Depletion of PBX3 gave: mean z-score 0.68; z-score, replicate A = 0.62; z-score, replicate B = 0.81; z-score, replicate C = 0.63; inactive.
Against TRERF1, the values are mean z-score 1.27; z-score, replicate A = 1.33; z-score, replicate B = 0.99; z-score, replicate C = 1.49; inactive.
ZNF568 #1 gave mean z-score 0.31; z-score, replicate A = 0.21; z-score, replicate B = 0.45; z-score, replicate C = 0.27; inactive.
Depletion of ZNF568 #2 came out at: mean z-score 1.28; z-score, replicate A = 1.24; z-score, replicate B = 1.44; z-score, replicate C = 1.15; inactive.
Against ZNF568 #3, the entry reads mean z-score -1.18; z-score, replicate A = -1.3; z-score, replicate B = -1.03; z-score, replicate C = -1.2; inactive.
